PubChem BioAssay AID1259414, Drosophila RNAi Screening Center | 2018
The screen tested about 24,000 reagents; this is a random part of those with a known target gene and a result. Over the whole deposit, about 1,210 (5%) got an active call. 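Inactive calls also include excluded dsRNAs with several or no targets, genes unexpressed in JW18, and well A1, regardless of score.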 Entries without a mark were called inactive. Names joined by + are all predicted targets of the reagent.

- Purpose: 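Fly genes that alter Wolbachia amount inside host cells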 (primary screen)
- Cells: Drosophila JW18 cells infected with Wolbachia
- Reagent: long dsRNA against Drosophila genes, 0.25 µg dsRNA per well of a 384-well plate
- Timing: 5 days
- Treatment: cells persistently infected with Wolbachia before knock-down; no added drug
- Detection: 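Imaged fluorescence in situ signal for Wolbachia 23S rRNA per DAPI-counted host cell, given as a robust z-score within each plate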
- Reading the numbers: Wolbachia per cell robust z: higher = more Wolbachia per host cell than the plate typical
- Rule for the call: 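Active if absolute robust z reaches 1.5 in two or more of three replicates, leaving out multi- or no-target dsRNAs, genes unexpressed in JW18 and A1 wells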

CG32473 (GeneID 41636) [DRSC14352] scored Wolbachia per cell robust z, rep 1 = -4.63; Wolbachia per cell robust z, rep 2 = 0.447; Wolbachia per cell robust z, rep 3 = 0.234. Knock-down of CG32473 (GeneID 41636) [DRSC16446] resulted in: Wolbachia per cell robust z, rep 1 = 0.483; Wolbachia per cell robust z, rep 2 = -0.582; Wolbachia per cell robust z, rep 3 = -0.115. With knock-down of Rich (GeneID 40456) [DRSC11607] the results were Wolbachia per cell robust z, rep 1 = -0.0345; Wolbachia per cell robust z, rep 2 = 0.846; Wolbachia per cell robust z, rep 3 = -0.234. Rich (GeneID 40456) [DRSC28514] showed Wolbachia per cell robust z, rep 1 = -0.0158; Wolbachia per cell robust z, rep 2 = 1.47; Wolbachia per cell robust z, rep 3 = 0.371. For Cdep (GeneID 40608) [DRSC12028], the entry reads Wolbachia per cell robust z, rep 1 = -1.29; Wolbachia per cell robust z, rep 2 = -0.345; Wolbachia per cell robust z, rep 3 = -1.59. Cdep (GeneID 40608) [DRSC12220] gave Wolbachia per cell robust z, rep 1 = 0.819; Wolbachia per cell robust z, rep 2 = 0.981; Wolbachia per cell robust z, rep 3 = -0.26.

Against Cdep (GeneID 40608) [DRSC12291], the entry reads Wolbachia per cell robust z, rep 1 = -5.19; Wolbachia per cell robust z, rep 2 = 1.82; Wolbachia per cell robust z, rep 3 = -0.0552. With knock-down of Cdep (GeneID 40608) [DRSC38586] the results were Wolbachia per cell robust z, rep 1 = -0.407; Wolbachia per cell robust z, rep 2 = -2.73; Wolbachia per cell robust z, rep 3 = -0.538. With knock-down of CG11262 (GeneID 39471) [DRSC09831] the results were Wolbachia per cell robust z, rep 1 = -0.134; Wolbachia per cell robust z, rep 2 = -1.14; Wolbachia per cell robust z, rep 3 = -0.0682. After knock-down of CG15892 + CG15891 [DRSC18095] the results were Wolbachia per cell robust z, rep 1 = -0.521; Wolbachia per cell robust z, rep 2 = -0.171; Wolbachia per cell robust z, rep 3 = -0.0788. For CG15892 + CG15891 [DRSC18096], the entry reads Wolbachia per cell robust z, rep 1 = -0.456; Wolbachia per cell robust z, rep 2 = 0.215; Wolbachia per cell robust z, rep 3 = 0.17. Silencing of CG15638 (GeneID 34768) [DRSC01875] resulted in: Wolbachia per cell robust z, rep 1 = 0.399; Wolbachia per cell robust z, rep 2 = -0.818; Wolbachia per cell robust z, rep 3 = 1.04.
